From article PMC10683372

Legend:
[1] = target: [F]‐hirugen, N^α‐fluoresceinated hirugen; assay: other fluorescence titration; thrombin (S195A by the methods) or its hirudin complex added to the fluoresceinated peptide (60 nM); excitation 492 nm, emission 516 nm; TBS, 25°C
[2] = target: [F]‐hirugen, N^α‐fluoresceinated hirugen; assay: as above; remark: listed apart in the source

## catalytically inactive αT S195A mutant (enzyme)
[1]
  pKd: 7.17
[2]
  pKd: 7.19

pKd: −log10 of the molar value. Where two headings read alike, the source gives them in different places.
